# According to US20250296984A1, “THERAPEUTIC AND DIAGNOSTIC AGENTS AND USES THEREOF” (priority 2022, published 2025):
# Molecular target: T1, Peptide-2 […] (SEQ ID NO: 7), US28 ECD3 4D variant (Human cytomegalovirus)
# T1 construct: made in house; host or cells: chemical synthesis
# Experiment: ELISA, binding to Bio-Peptide-2
# Set-up: species or system HCMV
# Settings: 4D variant peptide
# Protocol: Microtiter plate wells were coated with 100 μl of the solution containing: (i) Bio-Peptide-N; or (ii) Bio-Peptide-1 and Bio-Peptide-2; at a concentration of between 1-10 μg/ml in coating buffer, consisting of Na2CO3, 1.5 g and NaHCO3, 2.93 g in 1 L of distilled water in pH 9.6, and then incubated for 1-2 hours at room temperature. The plate was washed 3 times in wash buffer consisting of PBS containing 0.05% v/v Tween-20 and blotted with paper towels thereafter. 150 μl of blocking solution containing Phosphate buffered saline (PBS) containing 1% w/v BSA, was added to each well and the plate was incubated for 2 hours at 37° C. The wells were washed 4 times in wash buffer and blotted on paper towels after the last wash. 100 μl of antibody dilution was added to each well and the plate was incubated for 1 hour at 37° C. and thereafter washed 3 times in wash buffer. 100 μl enzyme-conjugated secondary antibody (appropriately diluted in wash buffer) was added to each well and the plate was incubated for 1 hour at 37° C. The wells were then again washed 3 times in wash buffer and blotted with paper towels after the last wash. […] The absorbance values were read immediately at the appropriate wavelength and the data analyzed by Cmax Plus, Molecular Devices, San Jose, CA 95134, USA, […]
row,Molecule,"Absorbance values, Peptide 2"
1,13-1C10-1G9: mouse hybridoma subclone antibody against US28 ECD3 Peptide-1 and -2; sequenced (antibody) heavy: EVKLVESGGGLVKPGGSLKLSCAASGFTFSSYAMSWVRQTPEKRLEWVASISSGGSTYYPDSVKGRFTISRDNARNILYLQMSSLRSEDTAMYYCARGGSTMITTGLGFAYWGQGTLVTVSAAKTTPPSVYPLAPGSAAQTNSMVTLGCLVKGYFPEPVTVTWNSGSLSSGVHTFPAVLQSDLYTLSSSVTVPSSTWPSETVTCNVAHPASSTKVDKKIVPRDCGCKPCICTVPEVSSVFIFPPKPKDVLTITLTPKVTCVVVDISKDDPEVQFSWFVDDVEVHTAQTQPREEQFNSTFRSVSELPIMHQDWLNGKEFKCRVNSAAFPAPIEKTISKTKGRPKAPQVYTIPPPKEQMAKDKVSLTCMITDFFPEDITVEWQWNGQPAENYKNTQPIMDTDGSYFIYSKLNVQKSNWEAGNTFTCSVLHEGLHNHHTEKSLSHSPGK light: QIVLTQSPAIMSASPGEKVTMTCSASSSVSYMHWYQQKSGTSPKRWIYDTSKLASGVPARFSGSGSGTSYSLTISSMEAEDAATYYCQQWSSNPPLTFGAGTKLELKRADAAPTVSIFPPSSEQLTSGGASVVCFLNNFYPKDINVKWKIDGSERQNGVLNSWTDQDSKDSTYSMSSTLTLTKDEYERHNSYTCEATHKTSTSPIVKSFNRNEC,3.065
2,14-4E4-1E8: mouse hybridoma subclone antibody against US28 ECD3 Peptide-1 and -2; sequenced (antibody) heavy: EVKLVESGGDLVKPGGSLKLSCAASGFTFSSYAMSWVRQTPEKRLEWVASISSGGRTYYPDSVKGRFTISRDNARNILYLQMSSLRSEDTAIYYCARGGTRHSYGNGFDYWGQGTTLTVSSAKTTPPSVYPLAPGSAAQTNSMVTLGCLVKGYFPEPVTVTWNSGSLSSGVHTFPAVLQSDLYTLSSSVTVPSSTWPSETVTCNVAHPASSTKVDKKIVPRDCGCKPCICTVPEVSSVFIFPPKPKDVLTITLTPKVTCVVVDISKDDPEVQFSWFVDDVEVHTAQTQPREEQFNSTFRSVSELPIMHQDWLNGKEFKCRVNSAAFPAPIEKTISKTKGRPKAPQVYTIPPPKEQMAKDKVSLTCMITDFFPEDITVEWQWNGQPAENYKNTQPIMDTDGSYFIYSKLNVQKSNWEAGNTFTCSVLHEGLHNHHTEKSLSHSPGK light: QIVLSQSPTIMSASPGEKVTMTCSASSSVSYMHWYQQKSGTSPKRWIYDSSKLASGVPARFSGSGSGTSYSLTISSMEAEDAATYYCQQWTSNPPITFGAGTKLELKRADAAPTVSIFPPSSEQLTSGGASVVCFLNNFYPKDINVKWKIDGSERQNGVLNSWTDQDSKDSTYSMSSTLTLTKDEYERHNSYTCEATHKTSTSPIVKSFNRNEC,2.871
